## Results of single-concentration screens

Data taken from ChEMBL document CHEMBL3988442, “University of Dundee, Small-Polar-MMV Screening Library” (2021).

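Whole-cell growth test on Mycobacterium tuberculosis, read after 3 days in glucose-containing 7H9 medium; the read-out is not stated. Concentration: 50 µM. Higher reads as more growth inhibition (inferred: compounds with an IC50 in retests scored well above the rest). Size under these conditions: about 69,000 compounds, about 760 of them at 50% or above in at least one test.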

Values are the deposited “Percent Effect”, in %.
The record does not define 0% and 100%; most values in the screen are far below 50% and negative numbers occur (in some assays of this library far below -100).
The entries come from a sample that favours strong results.
Two or more numbers in one place are separate tests of the same structure; such repeats can differ widely.

* N#Cc1cccc(N2CCCC(CO)(Cc3ccccc3F)C2)n1 (centres undefined) : 28.72%
* CCCS(=O)(=O)N1CCN(c2cc(-n3cnc(C)c3C)nc(C)n2)CC1 : -37.82%
* CC(C)C[C@H](N)COc1cccc(F)c1Oc1ccc(Cl)cc1 : 70.56%
* CCOc1ccc(CN2CCc3nc4ccsc4c(=O)n3CC2)cc1.Cl : 54.15%
* CN(CC(C)(C)C)S(=O)(=O)c1ccc(C(F)(F)F)nc1 : -0.006743%
* O=C(CS(=O)(=O)C1CCCC1)NC1CCCc2cc(OC(F)F)ccc21 (centres undefined) : 15.08%
* COc1ccc(C[C@H]2CN(C(=O)C3CC3)CC[C@H]2OC)cc1 : -7.852%
* CSCc1ccc(C(=O)N2CCN(CC(C)O)CC2)cc1 (centres undefined) : -1.198%
* CC(C)C(=O)NCc1ccnc(Oc2ccc(F)cc2)c1 : 25.02% and 6.553%
* CC(CNC(=O)N1CCN(c2ncccn2)CC1)Cc1cccs1 (centres undefined) : 5.522%
* CCNc1nnc(SC(C(=O)NCc2cccnc2)C(C)C)s1 (centres undefined) : 1.826% and 12.8%
* [H][C@]12CC[C@]([H])(CN(c3ncnc4ccsc34)C1)N(C)C2=O : -0.3028% and -48.12%
* Cc1ccccc1N1CCN(C(=O)c2cnn(C(C)C)c2)C(C)C1 (centres undefined) : 7.42%
* CC(CO)CSc1ncnc2[nH]ncc12 (centres undefined) : -0.6469%
* [H][C@]12CC[C@]([H])(CN(C(C)=O)C1)N(C(=O)CCc1n[nH]c3c1CCCC3)C2 : 4.824%
* Cc1ccc(OCC(=O)Nc2ncccc2OC(F)F)cc1 : 3.636% and 18.99%
* CCOC(=O)N1CCC(Oc2ccc(C(F)(F)F)cn2)CC1 : 34.55%
* CCN(CCn1cccn1)Cc1nc(-c2cccs2)oc1C : 12.02% and -4.039%
* CCCc1nc(C)cc(N2CCC3(CCC(=O)N(CCCO)C3)CC2)n1 : 0.289% and -4.886%
* CNc1c(NCc2ccco2)c(=O)c1=O : 14.69%
* CCn1cncc1CNc1ccc(-c2nc(CC(C)C)no2)cn1 : 43.12% and 36.31%
* Cl.NC(Cc1nc(-c2ccccc2)no1)c1ccccc1 (centres undefined) : 16.26% and 10.86%
* CC(C)(Oc1ccc(F)cc1)C(=O)NCc1ccco1 : 42.12%
* O=C(O)C(F)(F)F.O=C(O)C(F)(F)F.[H][C@]12CN(Cc3ccncc3)C(=O)[C@@]1([H])CN(C1CCOCC1)C2 : -1.789% and -4.313%
* C=C/C=c1\c(=C/C)oc2c(NCc3ccccc3)ncnc12 : 32.53%
* Cn1cc(C(=O)Nc2ccc3c(c2)N(C(=O)c2ccco2)CC3)nn1 : -5.617%
* CCn1ccnc1CN1CCCC1Cn1cc(C)cn1 (centres undefined) : 87.27%
* CN(CC(=O)N1CCCC1)C(=O)c1ccccc1F : -1.578% and 8.989%
* COc1cccc(OC)c1CNC(Cc1ccsc1)c1ccc(C)cn1 (centres undefined) : 71.05%
* Cc1ccc(O)c(CN(CCCn2ccnc2)Cc2ccc(C)s2)c1.O=C(O)CC(O)(CC(=O)O)C(=O)O : 53.05%
* [H][C@@]12CCN(C(=O)Cc3cccc(F)c3)C[C@]1(COC)CCO2 : -26.58%
* O=C(NCC1(O)COCCN(Cc2cccc(O)c2)C1)c1cnccn1 (centres undefined) : 4.456%
* CN1CCN([C@@H]2CCN(CC3=Cc4cc(Cl)ccc4OC3)C[C@H]2O)CC1 : 18.38%
* COC1CCCN(c2nc(C)nc3c2CCN(Cc2ccco2)CC3)C1 (centres undefined) : 3.804% and -9.029%
* COc1cc(Cl)c(C)cc1NC(=O)CNc1ccn(CC(N)=O)n1 : 8.898%
* CN(Cc1cc(F)ccc1F)CC(C)(CO)CO : -9.221%
* Cc1cc(C)n(CC2CCCN2CC(=O)Nc2nncs2)n1 (centres undefined) : -15.35%
* CC(=O)N1CCCN(C(=O)c2oc(Br)cc2C)CC1 : -4.195%
* COCCN(Cc1cccs1)C(=O)C1CCCN(C(N)=O)C1 (centres undefined) : 4.409% and -54.27%
* O=C(NCCOc1ccc(Cl)cn1)Nc1ccccn1 : 19.32%
* CS(=O)(=O)Cc1ccc(OCc2ccc(F)cc2)cc1 : 19.85%
* CCN1CCN(C[C@@H]2CN(c3ncc(Cl)cc3F)C[C@@H]2CO)CC1 : 36.14%
* CC(C)CNC(=O)c1nnsc1-c1ccccc1 : 6.724%
* COc1ccc(CNC(Cc2ccsc2)c2ccc(C)cn2)c(OC)c1 (centres undefined) : 60.99%
* Cc1csc(N2CCN(C(=O)Cc3cccs3)CC2)n1 : -12.96%
* COc1ccc(F)c(CN2CCCC3(CCN(C4CCOCC4)C3)C2)c1 (centres undefined) : 69.69% and 58.01%
* Cn1ccnc1-c1ccc(NC[C@H]2CCc3ccccc3O2)nn1 : 47.52%
* COC(=O)CNC(=O)CCCn1cnc2ccccc2c1=O : -8.282%
* O=C(O)c1cc(-c2ccoc2)cc(S(=O)(=O)NC2CC2)c1 : 66.57%
* Cc1ncccc1CNCC1COC2(CCCCC2)O1 (centres undefined) : 12.97%
* CC(=O)N1CCc2ccc(S(=O)(=O)N3CCCCC3C)cc21 (centres undefined) : 4.29%
* CN1CCC(c2cccc(Cc3ccc(F)cc3)n2)CC1 : -6.788%
* NCC1CCN(c2nc(C3CCCC3)nc3c2CCNCC3)C1 (centres undefined) : 37.66%
* CCOc1ccc(CN2C(=O)CC(CC)(CC)C2=O)nc1 : 18.21% and 17.42%
* CCc1nnc2n1CCN(C(=O)CN(CC)CC)C2 : 102.8%
* CCCS(=O)(=O)NCCn1ccc(-c2cccs2)n1 : -14.78%
* COCC(C)NC(=O)c1nnn(-c2ccc(Br)cc2)n1 (centres undefined) : 14.13%
* CC(C)Oc1cccc(C(=O)C2CCCN(C(=O)c3ccnn3C)C2)c1 (centres undefined) : -10.13%

6 of the entries, repeated:

{"compound": "CC(C)C(=O)NCc1ccnc(Oc2ccc(F)cc2)c1", "effect": "25.02 and 6.553"}
{"compound": "CCc1nnc2n1CCN(C(=O)CN(CC)CC)C2", "effect": 102.8}
{"compound": "CC(=O)N1CCc2ccc(S(=O)(=O)N3CCCCC3C)cc21", "stereo": "centres undefined", "effect": 4.29}
{"compound": "CCOc1ccc(CN2CCc3nc4ccsc4c(=O)n3CC2)cc1.Cl", "effect": 54.15}
{"compound": "CN(Cc1cc(F)ccc1F)CC(C)(CO)CO", "effect": -9.221}
{"compound": "CN1CCC(c2cccc(Cc3ccc(F)cc3)n2)CC1", "effect": -6.788}